Values from PubChem BioAssay AID624099 (ICCB-Longwood, 2012).

Purpose: 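Knock-downs relieving repression by E2 of an HPV18 LCR luciferase reporter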 (primary screen)
Cells: human C33A cervical carcinoma cells (HPV-negative) stably expressing BPV1 E2 and an HPV18 LCR luciferase reporter
Reagents: siRNA pool against human genes, 40 nM
Timing: 72 h
Read-out: 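Per-well luciferase luminescence, z-scored on each plate against the plate mean and SD with control wells left out, then averaged across three replicate plates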
Direction: mean z-score and z-score: higher = stronger reporter signal, weaker E2 silencing
Rule for the call: 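Hit if mean z-score reaches 2 and two or more of three replicate z-scores also reach 2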
The whole screen tested about 21,000 reagents; below is an unselected part. In the full data, 497 (2.4%) are marked active. 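Higher z means weaker E2 silencing; only reporter increases were scored, and knock-downs that hurt cell survival may mask genuine repressor factors.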

With knock-down of RANBP17, the screen gave mean z-score 0.79; z-score, replicate A = 0.54; z-score, replicate B = 0.98; z-score, replicate C = 0.85; inactive.
Knock-down of LOC388922 (retired record) resulted in: mean z-score 0.8; z-score, replicate A = 0.66; z-score, replicate B = 0.8; z-score, replicate C = 0.94; inactive.
Silencing of ATF7IP resulted in: mean z-score -0.21; z-score, replicate A = 0.1; z-score, replicate B = -0.5; z-score, replicate C = -0.22; inactive.
Silencing of TMEM121 gave: mean z-score 0.77; z-score, replicate A = 0.13; z-score, replicate B = 0.63; z-score, replicate C = 1.57; inactive.
After knock-down of HNRNPH3, the screen gave mean z-score 0.68; z-score, replicate A = 0.58; z-score, replicate B = 0.78; z-score, replicate C = 0.68; inactive.
VPS33B showed mean z-score 0.46; z-score, replicate A = 0.69; z-score, replicate B = 0.26; z-score, replicate C = 0.44; inactive.
For EDRF1, the entry reads mean z-score -0.23; z-score, replicate A = -0.28; z-score, replicate B = -0.39; z-score, replicate C = -0.04; inactive.
Against PSMB11, the entry reads mean z-score -0.39; z-score, replicate A = -0.44; z-score, replicate B = -0.44; z-score, replicate C = -0.31; inactive.
ISCA1 showed mean z-score -0.73; z-score, replicate A = -0.72; z-score, replicate B = -0.92; z-score, replicate C = -0.53; inactive.
Silencing of DRC7 came out at: mean z-score -0.01; z-score, replicate A = -0.11; z-score, replicate B = -0.11; z-score, replicate C = 0.19; inactive.
After knock-down of ACVR1C the results were mean z-score -0.67; z-score, replicate A = -0.47; z-score, replicate B = -0.66; z-score, replicate C = -0.88; inactive.
With knock-down of OR56A5 the results were mean z-score 0.21; z-score, replicate A = 0.17; z-score, replicate B = 0.18; z-score, replicate C = 0.28; inactive.
Depletion of HMGN2 resulted in: mean z-score 1.47; z-score, replicate A = 2.45; z-score, replicate B = 0.77; z-score, replicate C = 1.19; inactive.
Silencing of MTG1 came out at: mean z-score 0.9; z-score, replicate A = 1.29; z-score, replicate B = 0.94; z-score, replicate C = 0.47; inactive.
For TMEM8B the deposit lists mean z-score -0.04; z-score, replicate A = 0.13; z-score, replicate B = -0.1; z-score, replicate C = -0.15; inactive.
HOATZ gave mean z-score -0.92; z-score, replicate A = -0.59; z-score, replicate B = -1.02; z-score, replicate C = -1.16; inactive.
LOC389689 (retired record) showed mean z-score 0.1; z-score, replicate A = 0.06; z-score, replicate B = -0.11; z-score, replicate C = 0.35; inactive.
GFPT2 showed mean z-score 0.46; z-score, replicate A = 0.67; z-score, replicate B = 0.51; z-score, replicate C = 0.19; inactive.
Knock-down of TBC1D8B came out at: mean z-score 1.06; z-score, replicate A = 1.06; z-score, replicate B = 1.12; z-score, replicate C = 1.02; inactive.
Silencing of LOC388142 (retired record) gave: mean z-score 1.88; z-score, replicate A = 1.55; z-score, replicate B = 1.82; z-score, replicate C = 2.26; inactive.
With knock-down of DACT1, the screen gave mean z-score -0.1; z-score, replicate A = 0.05; z-score, replicate B = -0.21; z-score, replicate C = -0.14; inactive.
